Assay results from patent publication US12490739B2, “Synergistically effective fungicide composition comprising choline phosphonate and at least one additional fungicide” (BELCHIM CROP PROTECTION NV, priority 2019, dated 2025).

Assays:
Format in all cases: in vivo
Uncinula necator = assay: Example 12 field trial, Vitis vinifera var. Carignan infected with powdery mildew, France; settings: PESSEV; 100 leaves; 14 DA-A3; BBCH 77; second listing (r26); 1740.9 g a.c./ha
Plasmopara viticola [1] = assay: Example 7 field trial, Vitis vinifera var. Merlot infected with downy mildew, France; settings: 3250 g a.c./ha
Sphaerotheca fuliginea = assay: Example 3 field trial, cucumber (Cucumis sativus var. Bosco) infected with powdery mildew, Italy; settings: 3500 g a.c./ha
Peronospora cumensis = assay: Example 2 field trial, cucumber (Cucumis sativus) infected with downy mildew, France; settings: PESSEV, 1500 g a.c./ha
Venturia inaequalis = assay: Example 4 field trials, apple (Malus domestica var. Golden delicious) infected with scab; settings: 1950 g a.c./ha
Plasmopara viticola [2] = assay: Example 6 field trials, Vitis vinifera infected with downy mildew; settings: 3250 g a.c./ha

Substance: choline phosphonate
- CP f.e. (%) (Uncinula necator): 8.7%
- CP f.e. (%) (Plasmopara viticola [1]; PESINC, 50 bunches, 0 DA-A3, BBCH 73): 50.6%
- CP f.e. (%) (Plasmopara viticola [1]; PESINC, 50 bunches, 0 DA-A5, BBCH 77): 12.0%
- CP f.e. (%) (Plasmopara viticola [1]; PESINC, 50 bunches, 9 DA-A6, BBCH 83): 10.0%
- CP f.e. (%) (Plasmopara viticola [1]; PESINC, 100 leaves, 0 DA-A3, BBCH 73): 59.2%
- CP f.e. (%) (Plasmopara viticola [1]; PESINC, 100 leaves, 0 DA-A5, BBCH 77): 23.5%
- CP f.e. (%) (Plasmopara viticola [1]; PESINC, 100 leaves, 9 DA-A6, BBCH 83): 16.2%
- CP f.e. (%) (Plasmopara viticola [1]; PESSEV, 50 bunches, 0 DA-A5, BBCH 77): 54.9%
- CP f.e. (%) (Plasmopara viticola [1]; PESSEV, 50 bunches, 9 DA-A6, BBCH 83): 26.5%
- CP f.e. (%) (Sphaerotheca fuliginea; PESINC curative, 7 DA-A2, BBCH 73): 77.1%
- CP f.e. (%) (Sphaerotheca fuliginea; PESINC curative, 7 DA-A3, BBCH 76): 71.7%
- CP f.e. (%) (Sphaerotheca fuliginea; PESINC curative, 7 DA-A4, BBCH 77): 60%
- CP f.e. (%) (Sphaerotheca fuliginea; PESINC curative, 14 DA-A4, BBCH 78): 38.6%
- CP f.e. (%) (Sphaerotheca fuliginea; PESINC, 7 DA-A2, BBCH 73): 74.3%
- CP f.e. (%) (Sphaerotheca fuliginea; PESINC, 7 DA-A3, BBCH 76): 78.8%
- CP f.e. (%) (Sphaerotheca fuliginea; PESINC, 7 DA-A4, BBCH 77): 70.0%
- CP f.e. (%) (Sphaerotheca fuliginea; PESINC, 14 DA-A4, BBCH 78): 59.5%
- CP f.e. (%) (Sphaerotheca fuliginea; PESINC, 21 DA-A4, BBCH 79): 55.7%
- CP f.e. (%) (Sphaerotheca fuliginea; PESSEV curative, 7 DA-A2, BBCH 73): 88.6%
- CP f.e. (%) (Sphaerotheca fuliginea; PESSEV curative, 7 DA-A3, BBCH 76): 89.4%
- CP f.e. (%) (Sphaerotheca fuliginea; PESSEV curative, 7 DA-A4, BBCH 77): 89.9%
- CP f.e. (%) (Sphaerotheca fuliginea; PESSEV curative, 14 DA-A4, BBCH 78): 91.2%
- CP f.e. (%) (Sphaerotheca fuliginea; PESSEV, 7 DA-A2, BBCH 73): 92.5%
- CP f.e. (%) (Sphaerotheca fuliginea; PESSEV, 7 DA-A4, BBCH 77): 91.7%
- CP f.e. (%) (Sphaerotheca fuliginea; PESSEV, 14 DA-A4, BBCH 78): 89.0%
- CP f.e. (%) (Sphaerotheca fuliginea; PESSEV, 21 DA-A4, BBCH 79): 93.4%
- CP f.e. (%) (Peronospora cumensis; 6 DA-A2, BBCH 19): 63.8%
- CP f.e. (%) (Peronospora cumensis; 7 DA-A1, BBCH 16): 78.1%
- CP f.e. (%) (Peronospora cumensis; 7 DA-A4, BBCH 19): 73.8%
- CP f.e. (%) (Peronospora cumensis; 8 DA-A3, BBCH 19): 63.9%
- CP f.e. (%) (Peronospora cumensis; 14 DA-A4, BBCH 19): 60.1%
- CP f.e. (%) (Venturia inaequalis; PESINC, location 1 (France), 1 DA-A6, BBCH 74): 7.4%
- CP f.e. (%) (Venturia inaequalis; PESINC, location 1 (France), 6 DA-A4, BBCH 72): 12.5%
- CP f.e. (%) (Venturia inaequalis; PESINC, location 2 (United Kingdom), 5 DA-A8, BBCH 74): 61.0%
- CP f.e. (%) (Venturia inaequalis; PESINC, location 3 (Belgium), 31 DA-A9, BBCH 73): 41.1%
- CP f.e. (%) (Venturia inaequalis; PESINC, location 3 (Belgium), 80 DA-A9, BBCH 73): 31.7%
- CP f.e. (%) (Venturia inaequalis; PESSEV, location 1 (France), 1 DA-A6, BBCH 74): 35.7%
- CP f.e. (%) (Venturia inaequalis; PESSEV, location 1 (France), 6 DA-A4, BBCH 72): 32.7%
- CP f.e. (%) (Plasmopara viticola [2]; PESINC, location 1 (France, Negrette), 50 bunches, 1 DA-A6, BBCH 69): 32.5%
- CP f.e. (%) (Plasmopara viticola [2]; PESINC, location 1 (France, Negrette), 50 bunches, 1 DA-A8, BBCH 75): 6.0%
- CP f.e. (%) (Plasmopara viticola [2]; PESINC, location 1 (France, Negrette), 50 bunches, 16 DA-A9, BBCH 81): 0.0%
- CP f.e. (%) (Plasmopara viticola [2]; PESINC, location 2 (France, Grenache), 50 bunches, 9 DA-A4, BBCH 71): 0.0%
- CP f.e. (%) (Plasmopara viticola [2]; PESINC, location 2 (France, Grenache), 50 bunches, 9 DA-A4, BBCH 77): 0.0%
- CP f.e. (%) (Plasmopara viticola [2]; PESINC, location 2 (France, Grenache), 100 leaves, 6 DA-A5, BBCH 77): 0.0%
- CP f.e. (%) (Plasmopara viticola [2]; PESINC, location 2 (France, Grenache), 100 leaves, 9 DA-A4, BBCH 71): 0.8%
- CP f.e. (%) (Plasmopara viticola [2]; PESINC, location 3 (Germany, Mueller-Thurgau), 50 bunches, 11 DA-A4, BBCH 75): 55.5%
- CP f.e. (%) (Plasmopara viticola [2]; PESINC, location 3 (Germany, Mueller-Thurgau), 100 leaves, 7 DA-A8, BBCH 83): 0.0%
- CP f.e. (%) (Plasmopara viticola [2]; PESINC, location 3 (Germany, Mueller-Thurgau), 100 leaves, 13 DA-A6, BBCH 83): 0.3%
- CP f.e. (%) (Plasmopara viticola [2]; PESSEV, location 1 (France, Negrette), 50 bunches, 1 DA-A8, BBCH 75): 30.0%
- CP f.e. (%) (Plasmopara viticola [2]; PESSEV, location 1 (France, Negrette), 50 bunches, 16 DA-A9, BBCH 81): 19.2%
- CP f.e. (%) (Plasmopara viticola [2]; PESSEV, location 2 (France, Grenache), 50 bunches, 8 DA-A5, BBCH 77): 0.4%
- CP f.e. (%) (Plasmopara viticola [2]; PESSEV, location 2 (France, Grenache), 50 bunches, 9 DA-A4, BBCH 71): 4.5%
- CP f.e. (%) (Plasmopara viticola [2]; PESSEV, location 2 (France, Grenache), 50 bunches, 9 DA-A6, BBCH 79): 0.0%
- CP f.e. (%) (Plasmopara viticola [2]; PESSEV, location 2 (France, Grenache), 100 leaves, 6 DA-A5, BBCH 77): 21.4%
- CP f.e. (%) (Plasmopara viticola [2]; PESSEV, location 2 (France, Grenache), 100 leaves, 9 DA-A4, BBCH 71): 57.8%
- CP f.e. (%) (Plasmopara viticola [2]; PESSEV, location 3 (Germany, Mueller-Thurgau), 50 bunches, 7 DA-A8, BBCH 83): 8.7%
- CP f.e. (%) (Plasmopara viticola [2]; PESSEV, location 3 (Germany, Mueller-Thurgau), 50 bunches, 11 DA-A4, BBCH 75): 66.5%
- CP f.e. (%) (Plasmopara viticola [2]; PESSEV, location 3 (Germany, Mueller-Thurgau), 50 bunches, 13 DA-A6, BBCH 83): 14.4%
- CP f.e. (%) (Plasmopara viticola [2]; PESSEV, location 3 (Germany, Mueller-Thurgau), 100 leaves, 13 DA-A6, BBCH 83): 25.9%
